{"source": "paper PMC12444507", "about": "(ACS Omega, 2025)", "tested_on": "SARS-CoV-2 strain JPN/TY/WK-521 (SARS-CoV-2^WK-521, ancestral Wuhan strain)", "format": "cell-based", "data": [{"compound": "CC(C)(C)[C@H](NC(=O)C(F)(F)F)C(=O)N1C[C@H]2[C@@H]([C@H]1C(=O)N[C@@H](C[C@@H]1CCNC1=O)C(=O)c1nc3cc(F)ccc3s1)C2(C)C", "note": "[TKB272 (8)]", "values": [{"measurement": "enhancement of antiviral activity compared to TKB245 (6)", "value": "approximately 3 fold"}]}]}
